Data taken from patent publication US5198552A, “Indole derivative having antiviral, interferon-inducing and immunomodulatory effects” (priority 1991, dated 1993).

System: influenza A virus

CC(N)C12CC3CC(CC(C3)C1)C2 (centres unmarked) [Remantadine, alfa-methyl-1-adamantanemethylamine hydrochloride]
passes from which resistance occurs (influenza A virus in a cell culture): 2-3 passes | virus resistance to the preparation (passivating influenza A virus in a cell culture in presence of the drug, preparation of the invention: 6 passes): there occur the resis-

Counter-ions that a name gives are not always drawn.
